The target in this assay is Replicase polyprotein 1ab (Severe acute respiratory syndrome coronavirus 2, UniProt P0DTD1). Nature of the assay: Inhibition of recombinant SARS-CoV-2 Main protease using ALNDFSNSGSDVLYQPPQTSITSAVLQ/SGFRKMAFPS-NH2 as substrate preincubated for 45 to 75 mins followed by substrate addition measured after 6 mins by SPE-MS inhibition assay.

In general, IC50 refers to the concentration that gives 50% inhibition. As for `CC1(C)S[C@H]2N(C(=O)C2(Br)Br)[C@H]1C(=O)OCc1ccccc1`, the half-maximal inhibitory concentration (IC50) was > 50 µM.
